Anti-infective test results gathered from many reports (values: NIAID ChemDB through PubChem).

All rows: growth or infection tests; organism: Mycobacterium tuberculosis

Percent inhibition refers to the dose given; in toxicity tests it is the harm to the cells. An empty or dashed field is not shown. MIC bound: limit read from a one-dose screen. a–b is a range or a potency band. MIC50, MIC90 and the like: level of inhibition, or share of isolates inhibited. Rows are shuffled and stem from different studies.

structure	dose	method	strain	setting	measure	value
Cc1cc(=Nc2ccc3c(c2)c(N)cc(C)[n+]3C)nc(N)n1C	12.5 µg/mL	BACTEC	H37Rv		inhibition	28%
CNC(=S)NNC(=O)c1c(C)nc2sccn12			H37Rv		MIC	>200 µg/mL
O=[N+]([O-])c1ccc2sc3nnc(SCc4ccc(C(F)(F)F)cc4)n3c2c1			H37Rv		MIC	20 µg/mL
C=C1C2CC[C@H](C=O)C(O)(C=O)[C@@]2(C)CC[C@@H]1C			H37Rv		MIC	100 µg/mL
COC(=O)c1ccc(N2C(=O)c3cccc([N+](=O)[O-])c3C2=O)cc1O		resazurin	H37Ra		MIC50	>50 µg/mL
CC(C)=CCC/C(C)=C/CNC(=O)CNC(=O)CC12OC3(CC(=O)NCC(=O)NC/C=C(\C)CCC=C(C)C)C4C5CC(C6C5C3C61)C42		BACTEC	H37Rv		MIC	>50 µM
COc1ccc(C=NN2C(=O)c3ccccc3C2=O)cc1OC		resazurin	H37Ra		MIC50	>50 µg/mL
c1cncc(-c2ncc(-c3ccc4c(c3)OCO4)o2)c1			H37Rv		MIC	25 µg/mL
NC(N)=NS(=O)(=O)c1ccc(NC(=O)c2cccn3c(=O)c4ccccc4nc23)cc1	6.25 µg/mL	resazurin	H37Rv		inhibition	21%
CN[C@@H]1[C@H](O[C@H]2[C@H](O[C@@H]3[C@@H](N)[C@H](O)[C@@H](N)[C@H](O)[C@H]3O)O[C@@H](C)[C@]2(O)CO)O[C@@H](CO)[C@H](O)[C@H]1O			666		MIC	>100 µg/mL
CC(=O)O[C@H]1CC[C@]2(C)C3=CC[C@]4(C)[C@@H]([C@H](C)CC/C=C(\C)C(=O)O)C[C@H](OC=O)[C@@]4(C)C3=CC[C@H]2C1(C)C		GFP	H37Ra		MIC90	3.13 µg/mL
CCOC(=O)c1ccc(N2CCN(CCn3c(-c4ccc(OC(F)(F)F)cc4)nc4cc(C(=O)OCC)ccc43)CC2)c(N)c1		resazurin	H37Rv		MIC	0.135 µM
C/C=C/N1C(=O)CS/C1=N/NC(=O)c1c(C)nc2sccn12			H37Rv		MIC	>200 µg/mL
CC(Oc1ccc(-c2nc(N)nc(N)n2)cc1)C1CCCC1		resazurin	H37Rv		MIC	245 µM
C/C=C/C(=O)O[C@H]1CC[C@]2(C)C3=CC[C@]4(C)[C@@H]([C@H](C)CC/C=C(\C)C(=O)O)C[C@H](OC(C)=O)[C@@]4(C)C3=CC[C@H]2C1(C)C		GFP	H37Ra		MIC90	>50 µg/mL
O=[N+]([O-])c1ccc2sc3nnc(SCc4ccccc4F)n3c2c1			H37Rv		MIC	10 µg/mL
O=C(O)CC1S/C(=N\N=C\c2ccc(Cl)c(Cl)c2)N(c2ccccc2)C1=O					MIC	90 µM
O=C(N=Nc1c(O)[nH]c2ccc(Br)cc12)c1ccccn1		resazurin	H37Rv		MIC50	>50 µg/mL
CN1CCC(CNC(=O)CCCCCCCCC(=O)NCC2(c3ccccc3)CCN(C)CC2)(c2ccccc2)CC1	6.25 µg/mL	BACTEC	H37Rv		inhibition	1%
COC(=O)c1c([N+](=O)[O-])ccc2oc3ccc([N+](=O)[O-])cc3c(=O)c12			H37Rv		MIC	>32 µg/mL
COc1ccc2c(c1)c1c(C)c3cnccc3c(C)c1n2CC1CO1	6.25 µg/mL	resazurin	H37Rv		inhibition	100%
CCCCN1C(=O)CS/C1=N/NC(=O)c1c(C)nc2sccn12			H37Rv		MIC	>200 µg/mL
NNC(=O)c1ccncc1			H37Rv (INH-resistant)		MIC	≥1024 µM
CC(=O)OC[C@@]12C[C@@H](O)C(C)=CC1O[C@H]1[C@@H](O)[C@H](OC(C)=O)[C@]2(C)[C@@]12CO2	12.5 µg/mL	BACTEC	H37Rv		inhibition	21%
CCN1C(=O)CS/C1=N/NC(=O)c1c(C)nc2sccn12			H37Rv		MIC	>200 µg/mL
CC(=O)O[C@H]1CC[C@]2(C)C3=CC[C@]4(C)[C@@H]([C@H](C)CC/C=C(\C)C(=O)O)C[C@H](OC(C)=O)[C@@]4(C)C3=CC[C@H]2C1(C)C		GFP	H37Ra		MIC90	0.391 µg/mL
O=C(Oc1ccc(Cl)cc1C(=O)Nc1ccc(Cl)c(Cl)c1)c1cnccn1		broth dilution	H37Rv	14 d	MIC100	2 µM
COc1ccc(S(=O)(=O)NC(=S)S)cc1			INH-r		MIC	>12.8 µg/mL
CO[C@H]1/C=C/O[C@@]2(C)Oc3c(C)c(O)c4c(=O)c(c5oc6cc(N7CCN(CC(C)C)CC7)cc(=O)c6nc5c4c3=C2O)NC(=O)/C(C)=C\C=C\[C@H](C)[C@H](O)[C@@H](C)[C@@H](O)[C@@H](C)[C@H](OC(C)=O)[C@@H]1C			H37Rv		MBC	0.3–0.6 µg/mL
Cc1c(CN2CCN(C)CC2)cc(-c2ccc(Cl)cc2)n1-c1ccc(Cl)cc1		luminescence	H37Rv		MIC90	18.5 µM
CC[C@@H]1C(=O)OC[C@@H]1Cc1cncn1C			H37Rv		MIC	>200 µg/mL
O=S(=O)(Nc1ccccn1)c1nnc2sc3ccccc3n12			H37Rv		MIC	2 µg/mL
Cc1ccc(C(N)=S)cc1			H37Rv (INH-resistant)		MIC	512 µM
COc1ccc(COc2ccc(-c3nc(N)nc(N)n3)cc2)cc1		resazurin	H37Rv		MIC	3.37 µM
O=S(=O)(Nc1ccc(F)cc1)c1nnc2sc3ccccc3n12			H37Rv		MIC	50 µg/mL
CCCCCC1CC(=O)NC1C(=O)O		BACTEC	H37Rv		MIC bound	>12.5 µg/mL
CSC(=S)N/N=C(\C)c1ccc(OCc2ccc(F)cc2F)cc1		resazurin / absorbance	H37Rv		MIC	>100 µM
O=C(O)c1ccc2c(=O)c3cc([N+](=O)[O-])ccc3oc2c1			H37Rv		MIC	>32 µg/mL
CC1CCCN(c2ccc([N+](=O)[O-])s2)C1		resazurin	ss18b		MIC	6.25 µg/mL
CC(=O)N[C@@H](Cc1ccccc1)C(=O)Oc1cc(Cl)ccc1C(=O)Nc1ccc(C(F)(F)F)cc1		broth dilution	H37Rv	14 d	MIC100	0.25 µM
CC(C)=CCC/C(C)=C/CNC(=O)CNC(=O)[C@]12C3CC4C5C3C[C@@]1(C(=O)NCC(=O)NC/C=C(\C)CCC=C(C)C)C5C42		BACTEC	H37Rv		MIC	>50 µM
O=C(Nc1ccc(C(F)(F)F)cc1)c1cc(Cl)ccc1O		broth dilution	H37Rv	14 d	MIC100	2 µM
Cc1ccc(Cn2nnc(-c3cc([N+](=O)[O-])cc([N+](=O)[O-])c3)n2)cc1			234/2005	21 d	MIC	0.125 µM
Nc1ccc2oc3ccc(C(=O)O)cc3c(=O)c2c1			H37Rv		MIC	>32 µg/mL
O=C(Oc1cc(Br)ccc1C(=O)Nc1ccc(C(F)(F)F)cc1)c1cnccn1		broth dilution	H37Rv	14 d	MIC100	0.5 µM
COc1ccc(C(=O)NCCN2CCN3Cc4[nH]c5ccccc5c4CC3C2)cc1		resazurin	H37Rv		MIC bound	>6.25 µg/mL
CC[C@H](C)[C@H]1OC(=O)[C@H](C(C)C)N(C)C(=O)[C@@H]([C@@H](C)CC)OC(=O)[C@H](C(C)C)N(C)C(=O)[C@@H]([C@@H](C)CC)OC(=O)[C@H](C(C)C)NC1=O		resazurin	H37Ra		MIC	1.07 µM
CCOC(=O)N1CCN(N=Nc2c(C(=O)OC)n[nH]c2C)CC1		BACTEC	H37Rv		MIC bound	≤12.5 µg/mL
CN[C@@H]1[C@@H](O)[C@@H](O[C@@H]2[C@@H](O)[C@H](O[C@H]3O[C@H](CN)CC[C@H]3N)[C@@H](N)C[C@H]2N)OC[C@]1(C)O			7357/1998		MIC	1.05 µM
CN(C)c1ccc(C(N)=S)cc1			H37Rv (INH-resistant)		MIC	128 µM
O=S(=O)(c1ccccc1)c1cccc2c1NCCC2		BACTEC	H37Rv		MIC bound	>12.5 µg/mL
O=c1c2ccccc2nc(-c2ccccc2)n1-c1n[nH]c(=S)s1			H37Rv		MIC	10 µg/mL
Cc1cc(C)c(C(N)=S)cn1			H37Rv (drug-susceptible)		MIC	2048 µM
CC1CC(C)CN(c2sc([N+](=O)[O-])cc2[N+](=O)[O-])C1		resazurin	H37Rv		MIC	6.25 µg/mL
O=c1c2cc(Br)ccc2nc(-c2ccccc2)n1-c1nnc(SCC2CO2)s1			H37Rv		MIC	>40 µg/mL
CC1=NN(C(=O)NS(=O)(=O)c2ccc(CCNC(=O)c3nccnc3N)cc2)C(C)(C)C1		BACTEC	H37Rv		MIC bound	>12.5 µg/mL
C/C=C/C(=O)O[C@H]1C[C@H]([C@H](C)CC/C=C(\C)C(=O)O)[C@@]2(C)CC=C3C(=CC[C@H]4C(C)(C)[C@@H](OC(C)=O)CC[C@]34C)[C@]12C		GFP	H37Ra		MIC90	0.781 µg/mL
O=C(N=Nc1c(O)[nH]c2ccc([N+](=O)[O-])cc12)c1cccc([N+](=O)[O-])c1		resazurin	H37Ra		MIC50	>50 µg/mL
O=S(=O)(Nc1ccc(Cl)cn1)c1nnc2sc3ccccc3n12			H37Rv		MIC	10 µg/mL
Cc1cc(OC2OC(CO)C(O)C(O)C2O)ccc1O		BACTEC	H37Rv		MIC bound	>12.5 µg/mL
O=C1c2cccc([N+](=O)[O-])c2C(=O)N1c1cccc(O)c1		resazurin	H37Rv		MIC50	>50 µg/mL
NNC(=O)c1ccncc1		broth dilution	H37Rv		MIC	0.73 µM
COC(=O)c1cn(Cc2ccccc2)c(/C=C(\SC)c2ccccc2)c1C(=O)OC		resazurin	H37Rv		MIC bound	>6.25 µg/mL
C/C=C/NC(=S)NNC(=O)c1c(C)nc2sccn12			H37Rv		MIC	>200 µg/mL
O=C(N=Nc1c(O)[nH]c2ccccc12)c1ccc([N+](=O)[O-])cc1Cl		resazurin	H37Ra		MIC50	>50 µg/mL
Cc1nc2sccn2c1C(=O)N/N=C1\NC(=O)CS1			H37Rv		MIC	200 µg/mL
O=[N+]([O-])c1ccc(/C(=C/c2ccccc2)Cn2ccnc2)cc1	6.25 µg/mL	resazurin	H37Rv		inhibition	91%
CCC(=O)O[C@H]1C[C@H]([C@H](C)CC/C=C(\C)C(=O)O)[C@@]2(C)CC=C3C(=CC[C@H]4C(C)(C)[C@@H](OC(C)=O)CC[C@]34C)[C@]12C		resazurin	H37Rv		MIC90	0.3125 µg/mL
O=[N+]([O-])c1ccc2sc3nnc(SCc4ccc(Cl)c(Cl)c4)n3c2c1			H37Rv		MIC	10 µg/mL
O=c1c2cc(I)ccc2nc(-c2ccccc2)n1-c1n[nH]c(=S)s1			H37Rv		MIC	40 µg/mL
Cc1c(NC=O)c(=O)n(-c2ccccc2)n1C	12.5 µg/mL	BACTEC	H37Rv		inhibition	11%
CC1CCN(c2ccc([N+](=O)[O-])s2)CC1		resazurin	H37Rv		MIC	6.25 µg/mL
CCC1=CC(=O)C(CC)=CC1=O		BACTEC	H37Rv		MIC bound	≤128 µg/mL
O=C(O)CSc1nnc(-n2c(-c3ccccc3)nc3ccc(Br)cc3c2=O)s1			H37Rv		MIC	20 µg/mL
CC(Oc1ccc(-c2nc(N)nc(N)n2)cc1)c1ccc(Cl)cc1		resazurin	H37Rv		MIC	8.57 µM
O=S(=O)(Nc1ccc(F)c(Cl)c1)c1nnc2sc3ccccc3n12			H37Rv		MIC	50 µg/mL
CCCCCCC/C=C/C(=O)OC1C(OC2C(OC(CCCCCCC)CC(=O)OC(CCCCCCC)CC(=O)O)OC(C)C(O)C2O)OC(C)C(O)C1O		BACTEC	H37Rv		MIC	≥12.5 µg/mL
C[C@@H](O)[C@H]1C(=O)N2C(C(=O)O)=C(S[C@H]3CCCN3)S[C@H]12		visual reading	H37Rv		MIC	0.5 µg/mL
COc1ccc(-c2nc(N)nc(N)n2)cc1OCc1ccc(F)cc1		resazurin	H37Rv		MIC	10.25 µM
Nc1nc(N)c(N=Nc2ccccc2S(=O)(=O)O)c(=O)[nH]1		BACTEC	H37Rv		MIC	≥12.5 µg/mL
Cc1cc(C)nc(NS(=O)(=O)c2nnc3sc4ccccc4n23)c1			H37Rv		MIC	2 µg/mL
CCOc1ccc2c(c1)[n+]([O-])c(S(=O)(=O)c1ccc(C)cc1)c(N)[n+]2[O-]		BACTEC	H37Rv		MIC bound	≤12.5 µg/mL
O=C1c2ccccc2C(=O)N1N=Cc1ccc(O)c(O)c1		resazurin	H37Ra		MIC50	>50 µg/mL
NC(=O)SCC(=O)NNc1ccccc1	12.5 µg/mL	BACTEC	H37Rv		inhibition	-8%
COc1cccc(C=NN2C(=O)c3ccccc3C2=O)c1O		resazurin	H37Rv		MIC50	>50 µg/mL

Repeating the final 10 entries:

structure | dose | method | strain | setting | measure | value
O=S(=O)(Nc1ccc(F)c(Cl)c1)c1nnc2sc3ccccc3n12 |  |  | H37Rv |  | MIC | 50 µg/mL
CCCCCCC/C=C/C(=O)OC1C(OC2C(OC(CCCCCCC)CC(=O)OC(CCCCCCC)CC(=O)O)OC(C)C(O)C2O)OC(C)C(O)C1O |  | BACTEC | H37Rv |  | MIC | ≥12.5 µg/mL
C[C@@H](O)[C@H]1C(=O)N2C(C(=O)O)=C(S[C@H]3CCCN3)S[C@H]12 |  | visual reading | H37Rv |  | MIC | 0.5 µg/mL
COc1ccc(-c2nc(N)nc(N)n2)cc1OCc1ccc(F)cc1 |  | resazurin | H37Rv |  | MIC | 10.25 µM
Nc1nc(N)c(N=Nc2ccccc2S(=O)(=O)O)c(=O)[nH]1 |  | BACTEC | H37Rv |  | MIC | ≥12.5 µg/mL
Cc1cc(C)nc(NS(=O)(=O)c2nnc3sc4ccccc4n23)c1 |  |  | H37Rv |  | MIC | 2 µg/mL
CCOc1ccc2c(c1)[n+]([O-])c(S(=O)(=O)c1ccc(C)cc1)c(N)[n+]2[O-] |  | BACTEC | H37Rv |  | MIC bound | ≤12.5 µg/mL
O=C1c2ccccc2C(=O)N1N=Cc1ccc(O)c(O)c1 |  | resazurin | H37Ra |  | MIC50 | >50 µg/mL
NC(=O)SCC(=O)NNc1ccccc1 | 12.5 µg/mL | BACTEC | H37Rv |  | inhibition | -8%
COc1cccc(C=NN2C(=O)c3ccccc3C2=O)c1O |  | resazurin | H37Rv |  | MIC50 | >50 µg/mL